Data as given in PubChem BioAssay AID624099 (ICCB-Longwood, 2012).
This is an unselected part of about 21,000 reagents tested. 497 of all reagents (2.4%) count as active. 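Higher z means weaker E2 silencing; only reporter increases were scored, and knock-downs that hurt cell survival may mask genuine repressor factors.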

Screen: 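Human genes that papillomavirus E2 requires to repress the HPV18 LCR promoter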 (primary screen)
Cell system: human C33A cervical carcinoma cells (HPV-negative) stably expressing BPV1 E2 and an HPV18 LCR luciferase reporter
Reagents: siRNA pool against human genes, 40 nM
Duration: 72 h
Measurement: 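Per-well luciferase luminescence, z-scored on each plate against the plate mean and SD with control wells left out, then averaged across three replicate plates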
Direction: mean z-score and z-score: higher = stronger reporter signal, weaker E2 silencing
Rule for the call: 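Mean z ≥ 2 together with z ≥ 2 in two or more of the three replicates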

For USP17L9P, the values are mean z-score -0.03; z-score, replicate A = -0.24; z-score, replicate B = 0.2; z-score, replicate C = -0.06; inactive.
After knock-down of DOHH, the record shows mean z-score -0.2; z-score, replicate A = -0.31; z-score, replicate B = 0.05; z-score, replicate C = -0.34; inactive.
Knock-down of ETS2 resulted in: mean z-score 1.15; z-score, replicate A = 1.35; z-score, replicate B = 0.92; z-score, replicate C = 1.16; inactive.
Knock-down of FOXA1 resulted in: mean z-score 0.17; z-score, replicate A = 0.6; z-score, replicate B = 0.05; z-score, replicate C = -0.14; inactive.
For AIG1, the entry reads mean z-score 0.67; z-score, replicate A = 0.69; z-score, replicate B = 0.48; z-score, replicate C = 0.83; inactive.
Against G6PD, the values are mean z-score 0.84; z-score, replicate A = 0.46; z-score, replicate B = 1.35; z-score, replicate C = 0.7; inactive.
With knock-down of RNF111 the results were mean z-score -1.04; z-score, replicate A = -1.25; z-score, replicate B = -1.14; z-score, replicate C = -0.72; inactive.
SHMT1 gave mean z-score -1.8; z-score, replicate A = -1.38; z-score, replicate B = -1.84; z-score, replicate C = -2.19; inactive.
After knock-down of TM6SF1 the results were mean z-score 1.18; z-score, replicate A = 1.24; z-score, replicate B = 1.35; z-score, replicate C = 0.96; inactive.
After knock-down of KRTAP2-4 the results were mean z-score -0.39; z-score, replicate A = -0.44; z-score, replicate B = -0.52; z-score, replicate C = -0.22; inactive.
After knock-down of RIMBP3C, the record shows mean z-score -0.04; z-score, replicate A = 0.31; z-score, replicate B = -0.28; z-score, replicate C = -0.16; inactive.
With knock-down of DNAJC4, the record shows mean z-score 1.31; z-score, replicate A = 1.31; z-score, replicate B = 1.42; z-score, replicate C = 1.22; inactive.

Targets above whose target name starts with R or r (2):
RNF111 — mean z-score: -1.04; z-score, replicate A: -1.25; z-score, replicate B: -1.14; z-score, replicate C: -0.72; outcome: inactive
RIMBP3C — mean z-score: -0.04; z-score, replicate A: 0.31; z-score, replicate B: -0.28; z-score, replicate C: -0.16; outcome: inactive
